Anti-infective test results gathered from many reports (values: NIAID ChemDB through PubChem).

Shared fields: growth or infection tests; species: Mycobacterium avium complex

Rows are shuffled and stem from different studies.

{"SMILES": "N[C@@H]1CN(c2c(F)cc3c(=O)c(C(=O)O)cn([C@@H]4C[C@@H]4F)c3c2Cl)CC12CC2", "strain": "101", "endpoint": "MIC", "result": "8 µg/mL"}
{"SMILES": "CC[C@H]1OC(=O)[C@H](C)[C@@H](O[C@H]2C[C@@](C)(OC)[C@@H](OC(C)=O)[C@H](C)O2)[C@H](C)[C@@H](OC2O[C@H](C)C[C@H](N(C)C)[C@H]2OC(=O)NCCCCCCCCCCCCCCN(C)C)C(C)(O)C[C@@H](C)/C(=N\\OCCCC2CCCCC2)[C@H](C)[C@@H](O)[C@]1(C)O", "strain": "20092", "endpoint": "MIC", "result": "0.78 µg/mL"}
{"SMILES": "CC[C@@]1(O)OC(=O)[C@H](C)[C@@H](O[C@H]2C[C@@](C)(OC)[C@@H](O)[C@H](C)O2)[C@H](C)[C@@H](O[C@@H]2O[C@H](C)C[C@H](N(C)C)[C@H]2O)[C@](C)(OC)C[C@@H](C)C(=O)[C@H](C)[C@@H](O)[C@]1(C)O", "strain": "LV-2", "endpoint": "MIC", "result": "2 µg/mL"}
{"SMILES": "C/C(=N\\NC(=O)c1ccncc1)c1ccc(F)cc1", "strain": "12592 PI", "endpoint": "MIC", "result": ">5 µg/mL"}
{"SMILES": "CCCCCCCCO[C@@H]1OC(C(CO[C@@H]2O[C@@H]([C@H](O)CO)[C@H](O)[C@H]2O)OC(C)=O)[C@H](OC(C)=O)[C@H]1OC(C)=O", "strain": "NJ211", "endpoint": "MIC", "result": ">128 µg/mL"}
{"SMILES": "CO/C(=N\\N=C\\c1ccc(C(F)(F)F)cc1)c1ccncc1", "strain": "12592 PI", "endpoint": "MIC", "result": ">1 µg/mL"}
{"SMILES": "CC[C@H]1OC(=O)[C@H](C)[C@@H](O[C@H]2C[C@@](C)(OC)[C@@H](OC(C)=O)[C@H](C)O2)[C@H](C)[C@@H](OC2O[C@H](C)C[C@H](N(C)C)[C@H]2OC(N)=O)C(C)(O)C[C@@H](C)/C(=N\\OCCCC2CCCCC2)[C@H](C)[C@@H](O)[C@]1(C)O", "strain": "20034", "endpoint": "MIC", "result": "3.13 µg/mL"}
{"SMILES": "CCCCCCCCOC1OC([C@H](CO)OC2O[C@@H](C(O)CO)[C@H](O)[C@H]2O)[C@H](O)[C@H]1O", "strain": "NJ211", "endpoint": "MIC", "result": ">128 µg/mL"}
{"SMILES": "CC[C@H]1OC(=O)[C@H](C)[C@@H](O[C@H]2C[C@@](C)(OC)[C@@H](O)[C@H](C)O2)[C@H](C)[C@@H](O[C@@H]2O[C@H](C)C[C@H](N(C)C)[C@H]2O)[C@](C)(O)C[C@@H](C)CN(C)[C@H](C)[C@@H](O)[C@]1(C)O", "strain": "LV-2", "endpoint": "MIC", "result": "8 µg/mL"}
{"SMILES": "CCCCCCCCCCCCCCN(C)C(=O)O[C@H]1C(O[C@@H]2[C@@H](C)[C@H](O[C@H]3C[C@@](C)(OC)[C@@H](OC(C)=O)[C@H](C)O3)[C@@H](C)C(=O)O[C@H](CC)[C@@](C)(O)[C@H](O)[C@@H](C)/C(=N/OCCCC3CCCCC3)[C@H](C)CC2(C)O)O[C@H](C)C[C@@H]1N(C)C", "strain": "20034", "endpoint": "MIC", "result": "0.1 µg/mL"}
{"SMILES": "CCCCCCCCO[C@@H]1O[C@H]([C@@H](CO)O[C@H]2O[C@H](CO)[C@@H](O)[C@@H]2O)[C@H](O)[C@H]1O", "strain": "NJ304", "endpoint": "MIC", "result": ">128 µg/mL"}
{"SMILES": "CCCCCCC(=O)O[C@H]1[C@H](C)[C@@H](O[C@@H]2O[C@H](C)C[C@H](N(C)C)[C@H]2O)C(C)(O)C[C@@H](C)/C(=N\\OCCCOc2ccccc2)[C@H](C)[C@@H](O)[C@](C)(O)[C@@H](CC)OC(=O)[C@@H]1C", "strain": "20092 (clarithromycin-resistant)", "endpoint": "MIC", "result": "3.13 µg/mL"}
{"SMILES": "C/C(=N\\NC(=O)c1ccncc1)c1cccc(F)c1", "strain": "12592 PI", "endpoint": "MIC", "result": ">1 µg/mL"}
{"SMILES": "CC[C@H]1OC(=O)[C@H](C)[C@@H](O[C@H]2C[C@@](C)(OC)[C@@H](O)[C@H](C)O2)[C@H](C)[C@@H](O[C@@H]2O[C@H](C)C[C@H](N(C)C)[C@H]2O)[C@](C)(OC)C[C@@H](C)C(=O)[C@H](C)[C@@H](O)[C@]1(C)O", "strain": "N-444", "endpoint": "MBC", "result": ">64 µg/mL"}
{"SMILES": "CO/C(=N\\N=C\\c1ccc(OC)c(F)c1)c1ccncc1", "strain": "12592 PI", "endpoint": "MIC", "result": ">5 µg/mL"}
{"SMILES": "CC(C)N=C(N)/N=C(\\N)NOCCCOc1cc(Cl)c(Cl)cc1Cl", "strain": "3008", "endpoint": "MIC", "result": "32 µg/mL"}
{"SMILES": "CC[C@H]1OC(=O)[C@H](C)[C@@H](O[C@H]2C[C@@](C)(OC)[C@@H](OC(C)=O)[C@H](C)O2)[C@H](C)[C@@H](O[C@@H]2O[C@H](C)C[C@H](N(C)C)[C@H]2O)C(C)(O)C[C@@H](C)/C(=N\\OCCc2ccccc2)[C@H](C)[C@@H](O)[C@]1(C)O", "strain": "20092 (clarithromycin-resistant)", "endpoint": "MIC", "result": "12.5 µg/mL"}
{"SMILES": "CC[C@H]1OC(=O)[C@H](C)[C@@H](O[C@H]2C[C@@](C)(OC)[C@@H](O)[C@H](C)O2)[C@H](C)[C@@H](O[C@@H]2O[C@H](C)C[C@H](N(C)C)[C@H]2O)[C@](C)(OC)C[C@@H](C)C(=O)[C@H](C)[C@@H](O)[C@]1(C)O", "strain": "LV-2", "endpoint": "MIC", "result": "0.5 µg/mL"}
{"SMILES": "CCCCCCCCO[C@@H]1O[C@@H](C(COCc2ccccc2)O[C@@H]2O[C@@H](C(COC(C)=O)OC(C)=O)[C@H](OC(C)=O)[C@H]2OC(C)=O)[C@H](OCc2ccccc2)[C@H]1OCc1ccccc1", "strain": "NJ211", "endpoint": "MIC", "result": ">128 µg/mL"}
{"SMILES": "CO/C(=N\\N=C\\c1ccc(Cl)cc1)c1ccncc1", "strain": "12592 PI", "endpoint": "MIC", "result": ">5 µg/mL"}
{"SMILES": "CC[C@H]1OC(=O)[C@H](C)[C@@H](O[C@H]2C[C@@](C)(OC)[C@@H](OC(C)=O)[C@H](C)O2)[C@H](C)[C@@H](OC2O[C@H](C)C[C@H](N(C)C)[C@H]2OC(=O)NCC(=O)NC)C(C)(O)C[C@@H](C)/C(=N\\OCCCC2CCCCC2)[C@H](C)[C@@H](O)[C@]1(C)O", "strain": "20034", "endpoint": "MIC", "result": "0.78 µg/mL"}
{"SMILES": "CCCCCCCCO[C@@H]1O[C@@H]([C@H](COCc2ccccc2)O[C@H]2O[C@H](COCc3ccccc3)[C@@H](OCc3ccccc3)[C@@H]2OCc2ccccc2)[C@H](OCc2ccccc2)[C@H]1OCc1ccccc1", "strain": "NJ211", "endpoint": "MIC", "result": ">128 µg/mL"}
{"SMILES": "CC[C@H]1OC(=O)[C@H](C)[C@@H](OC2C[C@@](C)(OC)[C@@H](O)[C@H](C)O2)[C@H](C)[C@@H](O[C@@H]2O[C@H](C)C[C@H](N(C)C)[C@H]2O)C(C)(O)C[C@@H](C)/C(=N\\OCCCCOc2ccccc2)[C@H](C)[C@@H](O)[C@]1(C)O", "strain": "20039 (clarithromycin-susceptible)", "endpoint": "MIC", "result": "1.56 µg/mL"}
{"SMILES": "CC1CN(c2cc3c(cc2F)c(=O)c(C(=O)O)cn3-c2ccc(F)cc2F)CCN1", "strain": "MO-1", "endpoint": "MIC", "result": "2 µg/mL"}
{"SMILES": "CCCCCCCCO[C@@H]1O[C@H]([C@@H](COC)O[C@H]2O[C@H](CO)[C@@H](O)[C@@H]2O)[C@H](OC)[C@H]1OC", "strain": "NJ304", "endpoint": "MIC", "result": ">128 µg/mL"}
{"SMILES": "CC[C@H]1OC(=O)[C@H](C)[C@@H](O[C@H]2C[C@@](C)(OC)[C@@H](O)[C@H](C)O2)[C@H](C)[C@@H](O[C@@H]2O[C@H](C)C[C@H](N(C)C)[C@H]2O)[C@](C)(O)C[C@@H](C)/C(=N\\OCOCCOC)[C@H](C)[C@@H](O)[C@]1(C)O", "strain": "MO-1", "endpoint": "MIC", "result": "4 µg/mL"}
{"SMILES": "CC[C@H]1OC(=O)[C@H](C)[C@@H](OC2C[C@@](C)(OC)[C@@H](OC(C)=O)[C@H](C)O2)[C@H](C)[C@@H](O[C@@H]2O[C@H](C)C[C@H](N(C)C)[C@H]2O)C(C)(O)C[C@@H](C)/C(=N\\OCCCOc2ccccc2)[C@H](C)[C@@H](O)[C@]1(C)O", "strain": "20039 (clarithromycin-susceptible)", "endpoint": "MIC", "result": "1.56 µg/mL"}
{"SMILES": "CCCCCCCCOC1O[C@@H](C(O)COC2O[C@@H](C(O)CO)[C@H](O)[C@H]2O)[C@H](O)[C@H]1O", "strain": "NJ211", "endpoint": "MIC", "result": ">128 µg/mL"}
{"SMILES": "C/C(=N\\NC(=O)c1ccncc1)c1cccc(C(F)(F)F)c1", "strain": "12592 PI", "endpoint": "MIC", "result": ">20 µg/mL"}
{"SMILES": "CC/C=C/CCNC(=O)O[C@H]1C(O[C@@H]2[C@@H](C)[C@H](O[C@H]3C[C@@](C)(OC)[C@@H](OC(C)=O)[C@H](C)O3)[C@@H](C)C(=O)O[C@H](CC)[C@@](C)(O)[C@H](O)[C@@H](C)/C(=N/OCCCC3CCCCC3)[C@H](C)CC2(C)O)O[C@H](C)C[C@@H]1N(C)C", "strain": "20092", "endpoint": "MIC", "result": "0.1 µg/mL"}

Again, the opening 4 rows:

| SMILES | strain | endpoint | result |
|---|---|---|---|
| N[C@@H]1CN(c2c(F)cc3c(=O)c(C(=O)O)cn([C@@H]4C[C@@H]4F)c3c2Cl)CC12CC2 | 101 | MIC | 8 µg/mL |
| CC[C@H]1OC(=O)[C@H](C)[C@@H](O[C@H]2C[C@@](C)(OC)[C@@H](OC(C)=O)[C@H](C)O2)[C@H](C)[C@@H](OC2O[C@H](C)C[C@H](N(C)C)[C@H]2OC(=O)NCCCCCCCCCCCCCCN(C)C)C(C)(O)C[C@@H](C)/C(=N\OCCCC2CCCCC2)[C@H](C)[C@@H](O)[C@]1(C)O | 20092 | MIC | 0.78 µg/mL |
| CC[C@@]1(O)OC(=O)[C@H](C)[C@@H](O[C@H]2C[C@@](C)(OC)[C@@H](O)[C@H](C)O2)[C@H](C)[C@@H](O[C@@H]2O[C@H](C)C[C@H](N(C)C)[C@H]2O)[C@](C)(OC)C[C@@H](C)C(=O)[C@H](C)[C@@H](O)[C@]1(C)O | LV-2 | MIC | 2 µg/mL |
| C/C(=N\NC(=O)c1ccncc1)c1ccc(F)cc1 | 12592 PI | MIC | >5 µg/mL |